Experimental data from patent publication US11203633B2, “Polynucleotides encoding antibodies or antigen binding fragments thereof that bind pseudomonas perv” (priority 2011, dated 2021).

Test system: PcrV
Test: PcrV epitope diversity (bead based flow cytometry, competition ELISA, western blotting)
Type: binding, Pseudomonas aeruginosa
Settings: FIG. 12A

Row | Molecule | epitope class (anti-PcrV)
1 | 29D2: anti-PcrV mAb, epitope class 3 (antibody, V domains shown, 29D2 VH; 29D2 VL) VH: EVQLLESGGGLVQPGGSLRLSCAASGFTFSSYAMSWVRQAPGKGLEWVSAISGSGYSTYYADSVKGRFTMSRDNSKNTLYLQMNSLRAEDTAVYYCAAEYSISSNYYYGMDVWGQGTTVTVSS VL: DIQLTQSPSFLSASVGDRVTITCWASQGISSYLAWYQQKPGKAPKLLIYAASTLQSGVPSRFSGSGSGTEFTLTISSLQPEDFATYYCQQLNSSPLTFGGGTKVEIK | class 3
2 | V2L2: anti-PcrV monoclonal antibody; VH SEQ ID NO:216, VL SEQ ID NO:217 (antibody, V domains shown, V2L2 VH; V2L2 VL) VH: EMQLLESGGGLVQPGGSLRLSCAASGFTFSSYAMNWVRQAPGEGLEWVSAITISGITAYYTDSVKGRFTISRDNSKNTLYLQMNSLRAGDTAVYYCAKEEFLPGTHYYYGMDVWGQGTTVTVSS VL: AIQMTQSPSSLSASVGDRVTITCRASQGIRNDLGWYQQKPGKAPKLVIYSASTLQSGVPSRFSGSGSGTDFTLSISSLQPDDFATYYCLQDYNYPWTFGQGTKVEIK | class 4
